{"source": "PubChem BioAssay AID1224833 (University of Georgia, 2016)", "assay": "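Human genes whose knock-down alters rotavirus replication in monkey cells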 (primary screen)", "cells": "monkey MA104 kidney cells", "knock-down reagent": "siRNA pool against human genes, 50 nM", "timing": "48 h knock-down before infection; read 24 h after infection", "conditions": "infection with rotavirus strain RV3 two days after transfection; infectious dose for this stage not given", "measurement": "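z-score of rotavirus antigen signal per well, from a fluorescent immunoassay, relative to non-targeting control wells on the same plate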", "reading the numbers": "z-score vs non-targeting control: higher = more rotavirus replication than with non-targeting control", "hit rule": "In these data the active calls have z-score vs non-targeting control at about -1 or lower, or at about 1 or higher", "calls": "active = z-score beyond 1 either way; inactive = z-score within 1 of zero", "note": "In all, the deposit lists about 12,000 reagents; this is a part drawn at random. About 5,600 of all reagents (46%) were called active. 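Active calls cover z-scores past 1 in both directions, so they include lowered as well as raised rotavirus replication.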 Unmarked entries are inactive."}
{"Target gene": "CPNE1", "z-score vs non-targeting control": -0.21}
{"Target gene": "OR4D6", "z-score vs non-targeting control": "-1.06 (active)"}
{"Target gene": "SLC35A2", "z-score vs non-targeting control": "-1.45 (active)"}
{"Target gene": "GINM1", "z-score vs non-targeting control": "-1.96 (active)"}
{"Target gene": "KLF8", "z-score vs non-targeting control": "1.07 (active)"}
{"Target gene": "KRTAP10-8", "z-score vs non-targeting control": -0.547}
{"Target gene": "ABRAXAS2", "z-score vs non-targeting control": 0.0248}
{"Target gene": "NUTM2G", "z-score vs non-targeting control": -0.935}
{"Target gene": "NR2E3", "z-score vs non-targeting control": "-1.24 (active)"}
{"Target gene": "KLC3", "z-score vs non-targeting control": "-1.24 (active)"}
{"Target gene": "NCR3", "z-score vs non-targeting control": 0.904}
{"Target gene": "LRRN3", "z-score vs non-targeting control": -0.14}
{"Target gene": "MCC", "z-score vs non-targeting control": "-1.13 (active)"}
{"Target gene": "CENPC", "z-score vs non-targeting control": "-2.09 (active)"}
{"Target gene": "TREML2", "z-score vs non-targeting control": "-1.18 (active)"}
{"Target gene": "ZNF549", "z-score vs non-targeting control": -0.85}
{"Target gene": "VAPB", "z-score vs non-targeting control": -0.589}
{"Target gene": "FLRT1", "z-score vs non-targeting control": -0.523}
{"Target gene": "SPATA33", "z-score vs non-targeting control": -0.564}
{"Target gene": "SLC35B2", "z-score vs non-targeting control": 0.46}
{"Target gene": "TDRD10", "z-score vs non-targeting control": "-2.76 (active)"}
{"Target gene": "LARP7", "z-score vs non-targeting control": -0.66}
{"Target gene": "MROH8", "z-score vs non-targeting control": "-1.73 (active)"}
{"Target gene": "BCL3", "z-score vs non-targeting control": "3.3 (active)"}
{"Target gene": "NTNG2", "z-score vs non-targeting control": -0.471}

Quoted from above (5 entries):
{"Target gene": "ZNF549", "z-score vs non-targeting control": -0.85}
{"Target gene": "VAPB", "z-score vs non-targeting control": -0.589}
{"Target gene": "FLRT1", "z-score vs non-targeting control": -0.523}
{"Target gene": "SPATA33", "z-score vs non-targeting control": -0.564}
{"Target gene": "SLC35B2", "z-score vs non-targeting control": 0.46}

The results go on:
{"Target gene": "SLC25A48", "z-score vs non-targeting control": "-1.04 (active)"}
{"Target gene": "FIZ1", "z-score vs non-targeting control": -0.76}
{"Target gene": "MCM10", "z-score vs non-targeting control": 0.346}
{"Target gene": "CYP7B1", "z-score vs non-targeting control": -0.71}
{"Target gene": "ZBTB1", "z-score vs non-targeting control": -0.54}
{"Target gene": "WDR82", "z-score vs non-targeting control": -0.788}
{"Target gene": "CTSE", "z-score vs non-targeting control": 0.681}
{"Target gene": "PYM1", "z-score vs non-targeting control": "-1.74 (active)"}
{"Target gene": "COLQ", "z-score vs non-targeting control": "-1.08 (active)"}
{"Target gene": "SPRED3", "z-score vs non-targeting control": "-1.3 (active)"}
{"Target gene": "GPRIN3", "z-score vs non-targeting control": "-2.15 (active)"}
{"Target gene": "MAN1A1", "z-score vs non-targeting control": 0.758}
{"Target gene": "NDUFB10", "z-score vs non-targeting control": "-1.15 (active)"}
{"Target gene": "CD160", "z-score vs non-targeting control": "-1.77 (active)"}
{"Target gene": "GARIN6", "z-score vs non-targeting control": "2.45 (active)"}
{"Target gene": "TIRAP", "z-score vs non-targeting control": -0.383}
{"Target gene": "CNTN3", "z-score vs non-targeting control": "-1.14 (active)"}
{"Target gene": "EXPH5", "z-score vs non-targeting control": -0.763}
{"Target gene": "CLEC4C", "z-score vs non-targeting control": -0.187}
{"Target gene": "IGSF1", "z-score vs non-targeting control": -0.607}
{"Target gene": "DNAH6", "z-score vs non-targeting control": -0.725}
{"Target gene": "KRT1", "z-score vs non-targeting control": -0.65}
